Results of unrelated studies side by side (data: NIAID ChemDB).

Common to all: toxicity to cultured cells; cells: CEM; read-out: CC50

An empty or dashed field is not shown. Conditions beyond the fields shown may differ between rows. CCn is the concentration with n% toxicity to the cells.

SMILES | method | result
CCOCn1c(Cc2ccc3ccccc3c2)c(CC)c(=O)[nH]c1=O | - | 69.5 µM
C/C=C\COc1cc(NC(=S)OC(C)C)ccc1OC | - | 24.03 µM
CCCCCCCCOc1ccc(/C=C(/C#N)Sc2cccc[n+]2[O-])cc1 | cell count | ≥100 µg/mL
NC(=O)c1ccccc1SSc1ccccc1C(N)=O | - | 21 µM
CNC1CC12C1CC3CC(C1)CC2C3 | - | 75 µg/mL
COC(=O)Cc1cn([C@@H]2C=C[C@H](CO)O2)c(=O)[nH]c1=O | MTT | >100 µM
O=C(c1ccccc1)c1ccc2c(c1)sc(=O)n2Cc1ccccc1 | - | 2.1 µg/mL
CCOC(=O)CNC(=O)c1ccccc1SSc1ccccc1C(=O)NCC(=O)OCC | - | 25 µM
C=C[C@H](O)C1=C[C@@H](n2cnc3c(N)ncnc32)[C@H](O)[C@@H]1O | - | 180 µg/mL
CS(=O)(=O)c1ccc(NC(=O)c2ccccc2SSc2ccccc2C(=O)Nc2ccc(S(C)(=O)=O)cc2)cc1 | - | 22 µM
COc1ccc2nc(Cl)c(/C=C/C(=O)c3cc(C)oc3C)cc2c1 | MTS | >100 µM
COc1cc(/C=C(/C#N)Sc2cccc[n+]2[O-])cc(OC)c1OC | cell count | 3.3 µg/mL
CCCNC(=O)c1ccccc1SSc1ccccc1C(=O)NCCC | - | 19 µM
Nc1nc(=O)n([C@H]2O[C@@H](CO)[C@H](O)C2(F)F)cc1Cl | - | >100 µM
Cc1c(Cl)ccc(C(C)S(=O)c2cccc[n+]2[O-])c1Cl | cell count | 0.59 µg/mL
OC[C@H]1O[C@@H](c2ccccc2)[C@H](O)[C@@H]1O | - | >200 µg/mL
CC(=O)Oc1ccccc1COP(=O)(OCc1ccccc1OC(C)=O)OC[C@@H]1C=C[C@H](n2cc(C)c(=O)[nH]c2=O)O1 | - | 21 µM
Nc1ncnc2c1ccn2[C@@H]1C[C@H](O)[C@@H](O)[C@H]1O | - | >500 µg/mL
Cc1ccc2nc(Cl)c(/C=C/C(=O)c3sccc3C)cc2c1 | MTS | 82.1 µM
O=C1NC(=O)C(CSCc2ccccc2)N1 | - | >100 µM
CC(=O)CCCCCCCCCCCC(=O)O | - | 45 µg/mL
CC(C)OC(=O)c1cc(NC(=S)OCC2CC2)ccc1Cl | - | 21.05 µM
CCCCCCC(=O)NCCCCCC(=O)O | - | >100 µg/mL
COc1ccc(NC(=O)c2ccccc2SSc2ccccc2C(=O)Nc2ccc(OC)cc2)cc1 | - | 22 µM
Cc1ccccc1C(c1ccccc1)S(=O)(=O)c1cccc[n+]1[O-] | cell count | 47 µg/mL
COC(=O)[C@H](C)NP(=O)(OC[C@@H]1C=C[C@H](n2cc(CC(=O)NCCCCCCCCCCCCNC(=O)C(F)(F)F)c(=O)[nH]c2=O)O1)Oc1ccccc1 | MTT | >10 µM
O=C1NC(=O)C(CSCc2ccncc2)(CSCc2ccncc2)N1 | - | >100 µM
COC(=O)C(c1cccc(Oc2ccccc2)c1)S(=O)(=O)c1cccc[n+]1[O-] | cell count | 26 µg/mL
COC(=O)c1ccc(CSCC2(CSCc3ccc(C(=O)OC)cc3)NC(=O)NC2=O)cc1 | - | >25 µM
O=c1oc2cc(Cc3ccccc3)ccc2n1CCN1CCOCC1 | - | 14 µg/mL
Nc1nc(=O)n([C@@H]2O[C@@H](CO)[C@H](O)C2(F)F)cc1Cl | - | >100 µM
CC1=C(C(=O)Nc2ccc(Cl)c(C(=O)OC(C)C)c2)SCCO1 | - | 24.73 µM
O=C(O)/C=C/c1ccc(O)c(O)c1 | - | >3 µg/mL
NC(=O)c1ccc(NC(=O)c2ccccc2SSc2ccccc2C(=O)Nc2ccc(C(N)=O)cc2)cc1 | - | >100 µM
CCCCCOC(=S)Nc1ccc(Cl)c(C(=O)OC(C)C)c1 | - | 63.98 µM
O=c1[nH]c(=O)n([C@H]2O[C@@H](CO)[C@H](O)C2(F)F)cc1Br | - | >100 µM
CCc1c(Cc2ccc3ccccc3c2)n(COCCO)c(=O)[nH]c1=O | - | 121 µM
O=C1NC(=O)C(CS)(CS)N1 | - | >3 µM
COc1ccccc1O | - | <3 µg/mL
CC(C)C(NC(=O)c1ccccc1SSc1ccccc1C(=O)NC(C(=O)O)C(C)C)C(=O)O | - | >200 µM
C=C(C)COc1cc(NC(=S)OC(C)C)ccc1Cl | - | 36.69 µM
CC[C@H](O)C1=C[C@@H](n2cnc3c(N)ncnc32)[C@H](O)[C@@H]1O | - | >200 µg/mL
CCCCCCCCC(=O)CCCCC(=O)O | - | 32 µg/mL
Cc1cn([C@@H]2O[C@H](COP(=O)(N[C@@H](C)C(=O)OC(C)C)Oc3ccccc3)C(F)(F)C2(F)F)c(=O)[nH]c1=O | - | >100 µM
Cc1ccc(C)c(C(CO)S(=O)(=O)c2ccccn2)c1 | cell count | ≥100 µg/mL
CC(C)OC(=O)c1cc(NC(=S)OCC2(C)COC2)ccc1Cl | - | 72.65 µM
CC(C)c1c(Cc2cccc3ccccc23)n(COCCO)c(=O)[nH]c1=O | - | 58.4 µM
CN1c2c(-c3ccccc3)nn(CC(=O)N/N=C/c3ccc(Cl)c(Cl)c3)c2-c2ccccc2S1(=O)=O | - | 19.3 µM
O=C(NCCCc1cn([C@H]2C=C[C@@H](CO)O2)c(=O)[nH]c1=O)C(F)(F)F | MTT | >100 µM
O=C1CSC(C23CC4CC(CC(C4)C2)C3)N1c1ccc(Cl)c(C(F)(F)F)c1 | - | 240 µM
N#Cc1ccc(CS(=O)(=O)c2cccc[n+]2[O-])cc1 | cell count | 12 µg/mL
CO[C@H]1[C@H]2O[Si](C(C)C)(C(C)C)O[Si](C(C)C)(C(C)C)OC[C@@H]2O[C@@H]1c1ccccc1 | - | 20 µg/mL
CCCCCC(=O)NCCCCCCC(=O)O | - | 95 µg/mL
C#CCOc1cc(NC(=S)OC(C)C)ccc1Cl | - | 16.21 µM
Cc1ccc(C)c(C(C)S(=O)(=O)c2cc(C)cc(C)[n+]2[O-])c1 | cell count | >100 µg/mL
CC(C)OC(=S)Nc1ccc(Cl)c(C(=O)O)c1 | - | >365.3 µM
O=P(O)(O)OP(=O)(O)OP(=O)(O)OP(=O)(O)OP(=O)(O)OP(=O)(O)OP(=O)(O)OP(=O)(O)OP(=O)(O)OP(=O)(O)OP(=O)(O)OP(=O)(O)OP(=O)(O)OP(=O)(O)OP(=O)(O)O | MTT | >100 µg/mL
Cc1ccc(C)c(CS(=O)c2cccc[n+]2[O-])c1 | cell count | 48 µg/mL
O=c1[nH]c(=O)n([C@@H]2O[C@@H](CO)[C@H](O)C2(F)F)cc1I | - | >100 µM
Cc1ccc(C)c(CS(=O)(=O)c2ccccn2)c1 | cell count | 51 µg/mL
O=C(O)CCCCCCCCCCCn1cnnc1 | - | 27 µg/mL
Cc1ccc[n+]([O-])c1S(=O)(=O)Cc1cccc([N+](=O)[O-])c1C | cell count | 9.6 µg/mL
O=c1[nH]c(=O)n([C@@H]2O[C@@H](CO)[C@H](O)C2(F)F)cc1Cl | - | >100 µM
CN(C)c1ccc(/C=N/NC(=O)Cn2nc(-c3ccccc3)c3c2-c2ccccc2S(=O)(=O)N3C)cc1 | - | >100 µM
CC(c1ccc(S(C)(=O)=O)cc1)S(=O)c1cccc[n+]1[O-] | cell count | 3.8 µg/mL
COc1ccc(/C=N/NC(=O)Cn2nc(-c3ccccc3)c3c2-c2ccccc2S(=O)(=O)N3C)c(OC)c1OC | - | >100 µM
CCC(=O)c1ccc2c(c1)sc(=O)n2CCN1CCOCC1 | - | 29 µg/mL
NC(=O)CCNC(=O)c1ccccc1SCc1ccc([N+](=O)[O-])o1 | XTT | 8.24 µM
Cc1ccccc1C(C(N)=O)S(=O)c1cccc[n+]1[O-] | cell count | >100 µg/mL
CCCOC(=S)Nc1ccc(Cl)c(C(=O)OC(C)C)c1 | - | 22.16 µM
COC(=O)[C@H](C)NP(=O)(OC[C@@H]1C=C[C@H](n2cc(CC(=O)NCCCCCCCCNC(=O)C(F)(F)F)c(=O)[nH]c2=O)O1)Oc1ccccc1 | MTT | >100 µM
CC(C)OC(=O)[C@H](C)NP(=O)(OC[C@H]1O[C@@H](n2cnc3c(N)ncnc32)C(F)(F)C1(F)F)Oc1ccccc1 | - | 14 µM
CCCc1c(Cc2cccc3ccccc23)n(COCC)c(=O)[nH]c1=O | - | 33.79 µM
O=[N+]([O-])c1ccc(CS(=O)(=O)c2cccc[n+]2[O-])cc1 | cell count | 7.6 µg/mL
CC(C)(C)c1ccc(NC(=O)c2ccccc2SSc2ccccc2C(=O)Nc2ccc(C(C)(C)C)cc2)cc1 | - | 75 µM
Cc1cc[n+]([O-])c(S(=O)(=O)Cc2ccc(Cl)cc2)c1 | cell count | 20 µg/mL
Nc1nc(=O)n(C2O[C@@H](CO)[C@H](O)C2(F)F)cc1Br | - | >100 µM
Cc1ccc2nc(Cl)c(/C=C/C(=O)c3ccc(Cl)s3)cc2c1 | MTS | 31.6 µM
Cc1ccc(C)c(C(CC(C)C)S(=O)(=O)c2cccc[n+]2[O-])c1 | cell count | 6.2 µg/mL
COC(=O)Cc1cn([C@H]2C=C[C@@H](CO)O2)c(=O)[nH]c1=O | MTT | 230 µM
CN1c2c(-c3ccccc3)nn(CC(=O)N/N=C/c3cccc(Br)c3)c2-c2ccccc2S1(=O)=O | - | 17.6 µM
[N-]=[N+]=NCCCCCCCCCCC(=O)O | - | 26 µg/mL
Nc1ccn([C@@H]2O[C@H](CO)C(F)(F)C2(F)F)c(=O)n1 | - | >100 µM
C/C=C/COc1cc(NC(=S)OC(C)C)ccc1Cl | - | 19.7 µM
Cc1c(Cc2cccc3ccccc23)n(COCc2ccccc2)c(=O)[nH]c1=O | - | 41.7 µM
N#C/C(=C/c1c(Cl)cccc1Cl)S(=O)(=O)c1cccc[n+]1[O-] | cell count | 11 µg/mL
CCOCn1c(Cc2cccc3ccccc23)c(C(C)C)c(=O)[nH]c1=O | - | 32.1 µM
O=C(O)CCCCCCCCCCCn1cnnn1 | - | 34 µg/mL
C=CCOc1cc(NC(=S)OC(C)C)ccc1C#N | - | 13.75 µM
O=C(NNc1ccccc1)c1ccccc1SSc1ccccc1C(=O)NNc1ccccc1 | - | 5.2 µM
COc1ccc2nc(Cl)c(/C=C/C(=O)c3ccc4ccccc4c3)cc2c1 | MTS | >100 µM
CCN1CCCC12C1CC3CC(C1)CC2C3 | - | >200 µg/mL
O=C(c1ccccc1)c1ccc2[nH]c(=O)sc2c1 | - | 7.1 µg/mL
O=C(O)CCCCCCCCc1ncc[nH]1 | - | >500 µg/mL
O=S(=O)(Cc1c(Cl)ccc(Cl)c1Cl)c1cccc[n+]1[O-] | cell count | 6.5 µg/mL
CC(C)O/N=C/c1cc(NC(=S)OC(C)C)ccc1Cl | - | >303 µM
O=C(Cc1cn([C@H]2C=C[C@@H](CO)O2)c(=O)[nH]c1=O)NCCCCCCCCCCCCNC(=O)c1c2ccccc2nc2ccccc12 | MTT | >10 µM
CCCCOC(=O)c1cc(NC(=S)OC(C)C)ccc1Cl | - | 37.99 µM
O=c1[nH]c(=O)n([C@H]2O[C@@H](CO)[C@H](O)C2(F)F)cc1I | - | >100 µM
Cc1ccc2nc(Cl)c(/C=C/C(=O)c3sccc3Cl)cc2c1 | MTS | 31.6 µM
NCC1CC12C1CC3CC(C1)CC2C3 | - | 14 µg/mL
O=S(=O)(Cc1c(Cl)cccc1Cl)c1cccc[n+]1[O-] | cell count | 15 µg/mL
COc1ccc2nc(Cl)c(/C=C/C(=O)c3ccc[nH]3)cc2c1 | MTS | 4.7 µM
Cc1cn([C@H]2C=C[C@@H](CO)O2)c(=O)[nH]c1=O | - | 80 µM
C#C[C@H](O)C1=C[C@@H](n2cnc3c(N)ncnc32)[C@H](O)[C@@H]1O | - | 25 µg/mL
C1CNC2(C1)C1CC3CC(C1)CC2C3 | - | 100 µg/mL
Cc1ccc(C(=O)Nc2ccc(S(=O)(=O)O)c3cc(S(=O)(=O)O)cc(S(=O)(=O)O)c23)cc1NC(=O)c1cccc(NC(=O)Nc2cccc(C(=O)Nc3cc(C(=O)Nc4ccc(S(=O)(=O)O)c5cc(S(=O)(=O)O)cc(S(=O)(=O)O)c45)ccc3C)c2)c1 | - | >174 µM

For reference, 6 entries again:

SMILES	method	result
Nc1nc(=O)n(C2O[C@@H](CO)[C@H](O)C2(F)F)cc1Br	-	>100 µM
O=C(O)CCCCCCCCCCCn1cnnn1	-	34 µg/mL
O=[N+]([O-])c1ccc(CS(=O)(=O)c2cccc[n+]2[O-])cc1	cell count	7.6 µg/mL
C/C=C\COc1cc(NC(=S)OC(C)C)ccc1OC	-	24.03 µM
COC(=O)Cc1cn([C@H]2C=C[C@@H](CO)O2)c(=O)[nH]c1=O	MTT	230 µM
O=C1NC(=O)C(CSCc2ccncc2)(CSCc2ccncc2)N1	-	>100 µM